Measured values published in US7723021B2, “Methods for treating lentivirus infections” (The J. David Gladstone Institutes, priority 2003, dated 2010).

Tested on: HIV-1 Vif-mediated degradation of HA-APOBEC3G
Test: Co-transfection of HEK 293 cells with HA-APOBEC3G, HA-(1-104)APOBEC3G and Vif vectors, anti-HA immunoblot
Type: cell-based
Details: 2 μg or 4 μg of HA-(1-104)APOBEC3G expression vector
Experimental: HEK 293 cells were co-transfected with an HA-APOBEC3G expression vector or with increasing amounts (2 μg or 4 μg) of an HA-(1-104)APOBEC3G expression vector; and either an HIV-1 Vif or a control expression vector. The HA-APOBEC3G expression vector encodes wild-type (e.g., full-length) APOBEC3G fused in-frame to the hemagglutinin-epitope tag at the N-terminus. The HA-(1-104)APOBEC3G expression vector encodes amino acids 1-104 of APOBEC3G fused in-frame to the hemagglutinin-epitope tag. Cell lysates were clarified by centrifugation, and equal amounts of protein separated by SDS-PAGE. The separated proteins were transferred to nitrocellulose membranes, and both HA-APOBEC3G and HA-(1-104)APOBEC3G on the membranes were detected by anti-HA antibody. In cells transfected with the HA-APOBEC3G expression vector (and not co-transfected with the Vif expression vector), HA-APOBEC3G was produced that migrated at about 50 kD. In cells co-transfected with the Vif expression vector and the HA-APOBEC3G expression vector (and not co-transfected with the HA-(1-104)APOBEC3G expression vector), most of the HA-APOBEC3G was degraded.

B1: HA-(1-104)APOBEC3G: amino acids 1-104 of APOBEC3G fused in-frame to the hemagglutinin-epitope tag, expressed from a vector (protein)
chain: MKPHFRNTVERMYRDTFSYNFYNRPILSRRNTVWLCYEVKTKGPSRPPLDAKIFRGQVYSELKYHPEMRFFHWFSKWRKLHRDQEYEVTWYISWSPCTKCTRDM
modifications: left off: small tags and cut ends
**Q.** How did the “steady-state production of the ~50 kD HA-APOBEC3G fusion protein in the presence of Vif” value turn out when B1 was run?
**A.** Its value is “significantly restored”.
